Pooled drug test results. Numbers come from NIAID ChemDB, via PubChem.

Shared fields: tests in culture; organism: Candida albicans; read by: agar diffusion / agar; measure: zone

Blank or dashed fields: not listed here. a–b is a range or a potency band. Conditions beyond the fields shown may differ between rows. Zones are inhibition diameters on agar.

SMILES | dose | strain or isolate | result
CCCc1c(N2CCN(CC)CC2)[nH]c(=O)[nH]c1=O | 200 µg/disc | IFO 0583 | <10 mm
COc1ccc(-n2c(C)nc3ccc(Br)cc3c2=O)cc1 | 50 µg/mL | - | 17.76 mm
CC(C)=CCOc1ccc(C2CC(=O)c3c(O)cc(O)cc3O2)cc1 | 100 µg/mL | ATCC 10231 | 12 mm
O=C1NC(=S)SC1C(Sc1ccccc1)c1ccc(Br)cc1 | 100 mg/mL | ATCC 2091 | 16–20 mm
C[C@@H]1[C@H](O)[C@@H](C)/C=C/C=C/CC/C=C/C=C/C=C/C=C/C(O[C@H]2O[C@H](C)[C@@H](O)[C@H](N)[C@@H]2O)CC2O[C@](O)(CC(O)C(O)CCC(O)CC(O)CC(O)CC(=O)O[C@H]1C)CC(O)C2C(=O)O | 20 µg/disc | MTCC 183 | 0 mm
O=C1NC(=S)SC1C(Sc1ccccc1)c1ccc(Cl)cc1 | 100 mg/mL | ATCC 2091 | 16–20 mm
Cc1cc(Cl)nc(NC(c2cccc([N+](=O)[O-])c2)P(=O)(Oc2ccccc2)Oc2ccccc2)n1 | 10 µg/mL | - | 17 mm
COc1cc(C2c3c(nc[nH]c3=O)Oc3[nH]c(=S)[nH]c(=O)c32)cc(OC)c1OC | 10000 µg/mL | - | 11 mm
CCOC(=O)N1CCN(c2[nH]c(=O)[nH]c(=O)c2CC)CC1 | 200 µg/disc | IFO 0583 | <10 mm
Cc1nc2ccc(Br)cc2c(=O)n1-c1ccccc1Br | 50 µg/mL | - | 25.84 mm
Clc1ccc(C(Cn2ccnc2)OCc2ccsc2Cl)c(Cl)c1 | 0.5 mg/mL | - | 28 mm
CCO[C@@H]1C[C@@H]([C@H](C)[C@H]2CC[C@]3(C)C4=C(CC[C@@]23C)[C@]2(C)CC[C@H](O)C(C)(C)[C@H]2CC4)CC[C@@H]1C | 2 µg/disc | MTCC 183 | 18 mm
COc1ccc(CCn2cnc3ccccc3c2=O)cc1OC | 10 mg/mL | DMBC 005002 | 13.3 mm
O=c1ccc2cc3c(=O)[nH]c(=S)[nH]c3oc-2c1 | 10000 µg/mL | - | 0 mm
C[C@@H]1[C@H](O)[C@@H](C)/C=C/C=C/CC/C=C/C=C/C=C/C=C/C(O[C@H]2O[C@H](C)[C@@H](O)[C@H](N)[C@@H]2O)CC2O[C@](O)(CC(O)C(O)CCC(O)CC(O)CC(O)CC(=O)O[C@H]1C)CC(O)C2C(=O)O | 40000 µg/mL | - | 22 mm
C[C@H]1[C@H](O)[C@@H](C)/C=C/C=C/C=C/C=C/C=C/C=C/C=C/[C@H](O[C@@H]2O[C@H](C)[C@@H](O)[C@H](N)[C@@H]2O)C[C@@H]2O[C@](O)(C[C@@H](O)C[C@@H](O)CC[C@H](O)[C@@H](O)C[C@@H](O)CC(=O)O[C@H]1C)C[C@H](O)[C@H]2C(=O)O | 2500 µg/mL | PSSCK!7010 | 16.67 mm
COc1ccc(CCn2cnc3c(Cl)cccc3c2=O)cc1 | 10 mg/mL | DMBC 005002 | 12.2 mm
CCN(CC)N1C(=O)/C(=C/c2ccccc2)SC1=S | 100 mg/mL | ATCC 2091 | 16–20 mm
C=CCOc1ccc(C2CC(=O)c3c(O)cc(O)cc3O2)cc1 | 100 µg/mL | ATCC 14053 | 0 mm
O=C1NC(=S)SC1C(O)c1ccc(Cl)cc1Cl | 100 mg/mL | ATCC 2091 | 10–15 mm
Clc1ccccc1C(c1ccccc1)(c1ccccc1)n1ccnc1 | 10 mg/mL | RCMB 005002 | 26.1 mm
Cc1cc(Cl)nc(N)n1 | 10 µg/mL | - | 7 mm
COc1ccc(-n2c(-c3ccc(Cl)cc3)nc3ccccc3c2=O)cc1OC | 10 mg/mL | DMBC 005002 | 10.3 mm
CCCc1c(N2CCN(C(=O)OCC)CC2)[nH]c(=O)[nH]c1=O | 200 µg/disc | IFO 0583 | <10 mm
CCN(CC)N1C(=O)C(C(Sc2ccccc2)c2ccc(C)cc2)SC1=S | 100 mg/mL | ATCC 2091 | 10–15 mm
CCCc1c(N2CCN(c3ccccc3)CC2)[nH]c(=O)[nH]c1=O | 200 µg/disc | IFO 0583 | <10 mm
Cc1nc2ccc(Br)cc2c(=O)n1-c1ccccc1 | 50 µg/mL | - | 11.87 mm
COc1cc(C2C(C#N)=C(NS(=O)(=O)c3ccccc3)Oc3[nH]c(=S)[nH]c(=O)c32)cc(OC)c1OC | 10000 µg/mL | - | 12 mm
Cc1nc2ccc(Br)cc2c(=O)n1-c1ccc([N+](=O)[O-])cc1 | 50 µg/mL | - | 15.75 mm
CCN(CC)N1C(=O)C(C(Sc2ccccc2)c2ccc(C)cc2C)SC1=S | 100 mg/mL | ATCC 2091 | 16–20 mm
Cc1cc(Cl)nc(NC(c2ccc(Cl)cc2)P(=O)(Oc2ccccc2)Oc2ccccc2)n1 | 10 µg/mL | - | 10 mm
O=C1NC(=S)SC1C(Sc1ccccc1)c1c(Cl)cccc1Cl | 100 mg/mL | ATCC 2091 | 10–15 mm
O=c1c2ccccc2ncn1NC(c1ccc(O)cc1O)P(=O)(Oc1ccccc1)Oc1ccccc1 | 10 µg/mL | - | 14 mm

A second listing of 3 rows from above:

SMILES,dose,strain or isolate,result
COc1ccc(CCn2cnc3c(Cl)cccc3c2=O)cc1,10 mg/mL,DMBC 005002,12.2 mm
Cc1nc2ccc(Br)cc2c(=O)n1-c1ccccc1Br,50 µg/mL,-,25.84 mm
Cc1nc2ccc(Br)cc2c(=O)n1-c1ccc([N+](=O)[O-])cc1,50 µg/mL,-,15.75 mm